Anti-infective test results gathered from many reports (values: NIAID ChemDB through PubChem).

All rows: growth or infection tests; species: Cryptococcus neoformans

A number after MIC or MFC names an inhibition level or a share of isolates. Blank or dashed fields: not listed here. Percent inhibition refers to the dose given; in toxicity tests it is the harm to the cells. Conditions beyond the fields shown may differ between rows. Two numbers with a dash give a range or band. ECn is the concentration giving n% inhibition of infection, replication or growth.

structure | method | read-out | tested at | strain or isolate | result
C[C@@H]1CC[C@@]2(OC1)O[C@H]1C[C@H]3[C@@H]4CC=C5C[C@@H](O)[C@H](O)[C@@H](O[C@@H]6OC[C@@H](O)[C@H](O)[C@H]6O[C@@H]6O[C@@H](C)[C@H](O)[C@@H](O)[C@H]6O)[C@]5(C)[C@H]4CC[C@]3(C)[C@@]1(O)[C@@H]2C |  | MFC |  |  | 10 µg/mL
CC12C(=O)c3cccc(O)c3C(=O)C1CC1=C2C(=O)c2c(O)cccc2C1=O |  | MFC |  |  | 100 µg/mL
Clc1ccc(-c2c(C(c3ccccc3)n3ccnc3)cnn2-c2ccc(Cl)cc2Cl)cc1 |  | MBC |  |  | 33.3 µM
CCCCCCCCN[C@H]1CCc2cc(OC)c(OC)cc2C1 |  | MIC80 |  |  | 4 µg/mL
COc1cc(O)c2c(c1)OC(c1ccc(O)cc1)CC2=O | broth dilution | MIC |  | JEC21 | 80 µg/mL
C[C@@H](c1nc(-c2ccc(C#N)cc2)cs1)[C@](O)(Cn1cncn1)c1cc(F)ccc1F |  | MIC50 |  |  | 0.004–0.03 µg/mL
COc1cc(/C=C/[N+](=O)[O-])cc(OC)c1OC |  | MFC |  | 24 isolates | 4–32 µg/mL
C1CCC([C@@H]2CN3C(=NC[C@H]3C3CCCCC3)N2CCC23CC4CC(CC(C4)C2)C3)CC1 |  | EC50 |  | ATCC 32045 | 3.8 µg/mL
CCC(C)CC(C)CCCCCCCCC(=O)N[C@H]1C[C@@H](O)[C@H](NCCN)NC(=O)[C@@H]2[C@@H](O)CCN2C(=O)[C@H]([C@H](O)CCN)NC(=O)[C@H]([C@H](O)[C@@H](O)c2ccc(O)cc2)NC(=O)[C@@H]2C[C@@H](O)CN2C(=O)[C@H]([C@@H](C)O)NC1=O |  | MIC90 |  |  | >8 µg/mL
C1CCC(C[C@@H]2CN3C(=NC[C@@H]3CC3CCCCC3)N2CCC23CC4CC(CC(C4)C2)C3)CC1 |  | EC50 |  | ATCC 32045 | 2.3 µg/mL
C[C@H]1[C@H](O)[C@@H](C)/C=C/C=C/C=C/C=C/C=C/C=C/C=C/[C@H](O[C@@H]2O[C@H](C)[C@@H](O)[C@H](N)[C@@H]2O)C[C@@H]2O[C@](O)(C[C@@H](O)C[C@@H](O)CC[C@H](O)[C@@H](O)C[C@@H](O)CC(=O)O[C@H]1C)C[C@H](O)[C@H]2C(=O)O |  | MBC |  |  | 3.7 µM
CCCCCCCCCN1CCc2cc(OC)c(OC)cc2C1 |  | MIC80 |  |  | 16 µg/mL
C=C1OC(=O)c2c(OC)cc(OC)c(C)c2OC1=C | broth dilution / absorbance | MIC |  | ATCC 90113 | >128 µg/mL
CC/C=C/[C@H](CC)C/C(=C/[C@@]1(CC)C[C@H](CC)[C@H](CC(=O)O)OO1)CC |  | EC50 |  |  | 5.5 µg/mL
CC(=O)N1CCN(c2ccc(OC[C@H]3CO[C@](Cn4ccnc4)(c4ccc(Cl)cc4Cl)O3)cc2)CC1 | broth dilution | MIC100 |  | ATCC 32264 | 0.25 µg/mL
COC(=O)Nc1nc2ccc(Sc3ccccc3)cc2[nH]1 |  | EC50 |  | ATCC 14116 | 0.016 µg/mL
O=C(O)c1ccccc1 |  | EC50 |  | CBS 132 | 0.26 µM
Cc1ccc(C(F)(F)C(F)(F)c2ccc(C(C)(C)N)cc2)cc1 |  | MIC100 |  | MY2062 | 0.25 µg/mL
N=C(N)c1ccc2c(c1)[nH]c1cc(C(=N)N)ccc12 |  | MFC |  | H99 | 50 µg/mL
CO[C@H]1C[C@H](O[C@H]2[C@@H](OC)C[C@H](O[C@H]3[C@@H](OC)C[C@H](O[C@H]4CC[C@@]5(C)C(=CC[C@H]6C7=CC(=O)[C@@H]8[C@@H](C)OC(=O)[C@]78CC[C@@H]65)C4)O[C@@H]3C)O[C@@H]2C)O[C@H](C)[C@H]1O | broth dilution / turbidity | MIC |  | IP 90526 | 100 µg/mL
C=C1CO[C@@]2(O[C@H]3C[C@H]4[C@@H]5CC=C6C[C@@H](O)[C@H](O)[C@@H](O[C@@H]7O[C@H](CO)[C@H](O)[C@H](O)[C@H]7O)[C@]6(C)[C@H]5CC[C@]4(C)[C@H]3[C@@H]2C)[C@@H](O)C1 |  | MFC |  |  | ≥20 µg/mL
CCCCNC(=O)n1c(NC(=O)OC)nc2ccccc21 |  | EC50 |  | IU4 | <3.7 µg/mL
Cc1c(N)nc([C@H](CC(N)=O)NC[C@H](N)C(N)=O)nc1C(=O)N[C@H](C(=O)N[C@H](C)[C@@H](O)[C@H](C)C(=O)N[C@H](C(=O)NCCc1nc(-c2nc(C(=O)NCCC[S+](C)C)cs2)cs1)[C@@H](C)O)C(O[C@@H]1O[C@@H](CO)[C@@H](O)[C@H](O)[C@@H]1O[C@H]1O[C@H](CO)[C@@H](O)[C@H](OC(N)=O)[C@@H]1O)c1cnc[nH]1 |  | MLC |  | Isolate 94-181 | 3.23 µg/mL
CCCCCOc1ccc(-c2ccc(-c3ccc(C(=O)N[C@H]4C[C@@H](O)[C@@H](O)NC(=O)[C@@H]5[C@@H](O)[C@@H](C)CN5C(=O)[C@H]([C@H](C)O)NC(=O)[C@H]([C@H](O)[C@@H](O)c5ccc(O)cc5)NC(=O)[C@@H]5C[C@@H](O)CN5C(=O)[C@H]([C@H](C)O)NC4=O)cc3)cc2)cc1 |  | MIC50 |  |  | >8 µg/mL
CCCCCCCCCN1CCc2cc(O)c(O)cc2C1 |  | MIC80 |  |  | 16 µg/mL
c1ccc(-c2c(C(c3ccccc3)n3ccnc3)cnn2-c2ccccc2)cc1 |  | MBC |  |  | 22 µM
CC[C@@H]([C@H](C)O)n1ncn(-c2ccc(N3CCN(c4ccc(OC[C@@H]5CO[C@@](Cn6cncn6)(c6ccc(F)cc6F)C5)cc4)CC3)cc2)c1=O |  | MIC50 |  |  | 0.004–0.06 µg/mL
CCCCCCCCCCN[C@H]1CCc2cc(OC)c(OC)cc2C1 |  | MIC80 |  |  | 1 µg/mL
C[C@@H](c1ncncc1F)[C@](O)(Cn1cncn1)c1ccc(F)cc1F |  | MIC90 |  |  | 4 µg/mL
CCCCCCCCCCCCN1CCc2cc(OC)c(OC)cc2C1 |  | MIC80 |  |  | 16 µg/mL
COc1cc(O)c(C(C)=O)c(OC)c1 |  | MFC |  |  | >500 µg/mL
C=C(Cl)/C=C/[C@H](O)CC(=C)C[C@H]1OC2[C@@H](O)[C@]3(O)C[C@@H](O)[C@H](C)[C@H](CCC/C=C\[C@@H]4C[C@@H](O)C[C@]5(C[C@H](OC)CC(CC(=O)[C@@H](C)[C@H](OC(C)=O)[C@@H](C)C(=C)C[C@@H]6C[C@@](C)(O)C[C@]7(C[C@H](OC(C)=O)CC(CC(=O)O[C@@H]([C@@H]1O)[C@H]2C)O7)O6)O5)O4)O3 |  | MFC |  | ATCC66031 | 1.56 µg/mL
CC(C)(C)[C@](O)(COc1ccc(Cl)cc1)Cn1cncn1 |  | MLC50 |  |  | >0.08 µg/mL
c1ccc2c(c1)-c1nccc3ccnc-2c13 |  | inhibition | 50 µg/mL | ATCC52627 | 80%
CCCCCCCCCN[C@H]1CCc2cc(OC)c(OC)cc2C1 |  | MIC80 |  |  | 4 µg/mL
O[C@](Cn1cncn1)(Cn1cnc(/C=C/c2ccc(OCC(F)(F)C(F)F)cc2)n1)c1ccc(F)cc1F |  | Mean MIC80 |  | 10 strains | 0.0075 µg/mL
CO[C@H]1C[C@H](O[C@H]2CC[C@@]3(C)C(=CC[C@H]4C5=CC(=O)[C@@H]6[C@@H](C)OC(=O)[C@]56CC[C@@H]43)C2)O[C@H](C)[C@H]1O | broth dilution / turbidity | MIC |  | IP 90526 | 50 µg/mL
CC(C)C[C@@H]1CN2C(=NC[C@@H]2C2CCCCC2)N1CCC12CC3CC(CC(C3)C1)C2 |  | EC50 |  | ATCC 32045 | 4.5 µg/mL
CN(C)C1=NC(=O)/C(=C/c2ccc(F)cc2)S1 | broth dilution | MIC100 |  | ATCC 32264 | >250 µg/mL
COc1cc(O)c2c(=O)oc(CO)c(CO)c2c1C | broth dilution / absorbance | MIC |  | ATCC 90113 | >128 µg/mL
C[N+]1=CC2C(=O)c3nccc4ccnc(c34)C2C1 |  | MIC80 |  |  | >64 µg/mL
C1CCC(C[C@H]2CN=C3N2C[C@H](C2CCCCC2)N3CCC23CC4CC(CC(C4)C2)C3)CC1 |  | EC50 |  | ATCC 32045 | 3.2 µg/mL
CN(C/C=C/C#CC(C)(C)C)Cc1cccc2ccccc12 | broth dilution | MIC100 |  | ATCC 32264 | 0.39 µg/mL
C=C1/C=C(\C)[C@H](CC)OC(=O)[C@H](C)C(=O)C(O)(CO)C/C(OC)=C/[C@@H](C)C1 |  | MFC |  | IAM 4772 | 0.3 µg/mL
C[C@H](c1ncncc1F)[C@](O)(Cn1cncn1)c1ccc(F)cc1F | broth dilution | MIC80 |  | ATCC | 0.18 µM
Cc1cc(O)c2c(c1)C(=O)C=CC2=O |  | MFC |  |  | 1 µg/mL
O=C(O)c1ccccc1O | broth dilution / turbidity | EC50 |  | CBS 132 | 0.35 µM
C=C(CCC1(O)O[C@H]2C[C@H]3[C@@H]4CC=C5C[C@@H](O)[C@H](O)[C@@H](O[C@@H]6O[C@H](CO)[C@H](O)[C@H](O)[C@H]6O)[C@]5(C)[C@H]4CC[C@]3(C)[C@H]2[C@@H]1C)CO[C@@H]1O[C@H](CO)[C@@H](O)[C@H](O)[C@H]1O |  | MFC |  |  | 5 µg/mL
C[C@@H]1[C@H](O)[C@@H](C)/C=C/C=C/CC/C=C/C=C/C=C/C=C/C(O[C@H]2O[C@H](C)[C@@H](O)[C@H](N)[C@@H]2O)CC2O[C@](O)(CC(O)C(O)CCC(O)CC(O)CC(O)CC(=O)O[C@H]1C)CC(O)C2C(=O)O | broth dilution / turbidity | EC50 |  |  | 3.125 µg/mL
Cc1nn([C@H](C)[C@](O)(Cn2cncn2)c2ccc(F)cc2F)c2ccc([N+](=O)[O-])cc12 |  | MIC90 |  | ATCC 4065 | 0.5 µg/mL
C[C@@H]1CC[C@@]2(OC1)O[C@H]1C[C@H]3[C@@H]4CC=C5C[C@@H](O)[C@H](O)[C@@H](O[C@@H]6OC[C@@H](O)[C@H](O)[C@H]6O)[C@]5(C)[C@H]4CC[C@]3(C)[C@@]1(O)[C@@H]2C |  | MFC |  |  | ≥20 µg/mL
Cc1ccc(C(C)C)c(O)c1 | broth dilution / turbidity | EC50 |  | CBS 132 | 0.16 µM

7 of the rows above, restated:

structure	method	read-out	tested at	strain or isolate	result
C[N+]1=CC2C(=O)c3nccc4ccnc(c34)C2C1		MIC80			>64 µg/mL
CC(C)C[C@@H]1CN2C(=NC[C@@H]2C2CCCCC2)N1CCC12CC3CC(CC(C3)C1)C2		EC50		ATCC 32045	4.5 µg/mL
COc1cc(/C=C/[N+](=O)[O-])cc(OC)c1OC		MFC		24 isolates	4–32 µg/mL
CCCCNC(=O)n1c(NC(=O)OC)nc2ccccc21		EC50		IU4	<3.7 µg/mL
c1ccc(-c2c(C(c3ccccc3)n3ccnc3)cnn2-c2ccccc2)cc1		MBC			22 µM
O=C(O)c1ccccc1O	broth dilution / turbidity	EC50		CBS 132	0.35 µM
C1CCC(C[C@H]2CN=C3N2C[C@H](C2CCCCC2)N3CCC23CC4CC(CC(C4)C2)C3)CC1		EC50		ATCC 32045	3.2 µg/mL